A mixed list of measured activities; the numbers were collected in NIAID ChemDB.

Common to all: whole-cell or culture tests; agent: Hepatitis B virus; method: PCR; endpoint: EC50

ECn: concentration that inhibits the pathogen or its effect by n%. Neighbouring rows are from separate reports. a–b is a range or a potency band. An empty or dashed field is not shown.

{"smiles": "N=S1(=O)CCN(C(=O)Nc2ccc(F)c(Cl)c2)CC1c1cccs1", "cells": "HepG2.117", "result": "0.5–5 µM"}
{"smiles": "C#C[C@@H](NC(=O)C(=O)c1c(C)c(C(=O)Nc2ccc(F)c(C#N)c2)n(C)c1C)C1CC1", "cells": "HepG2.2.15", "result": "<0.001 µM"}
{"smiles": "Cn1cc(S(=O)(=O)N[C@@H]2CCN(C(=O)C(=O)NOCO)C2)c(F)c1C(=O)Nc1cc(F)c(F)c(F)c1", "cells": "HepAD38 cells", "result": "<0.1 µM"}
{"smiles": "CC#CC1(NC(=O)C(=O)c2c(C)c(C(=O)Nc3ccc(F)c(C#N)c3)n(C)c2C)COC1", "cells": "HepG2.2.15", "result": "<0.001 µM"}
{"smiles": "CCOC(=O)C1=C(CN2CC(F)(F)[C@@H]3[C@H]2CON3CC[C@@](C)(O)C(=O)O)NC(c2nccs2)=N[C@H]1c1ccc(F)c(F)c1C", "cells": "HepG2.2.15", "result": "0.054 µM"}
{"smiles": "CC(C)CNc1cnn2c3c(c(=O)n(-c4ccccc4)c12)CCN(C(=O)c1ccc(Cl)c(Cl)c1)C3", "cells": "HepG2.117", "conditions": "3 d", "result": ">5 µM"}
{"smiles": "Cc1cc(NC(=O)c2c3c(cn2C)S(=O)(=O)N[C@H]2CN(C(=O)C(=O)NC4(C)COC4)C[C@H]2CO3)ccc1F", "cells": "HepG2", "result": "<0.5 µM"}
{"smiles": "Cc1nn(C)cc1NS(=O)(=O)c1ccc2c(C(=O)Nc3ccc(F)c(Cl)c3)n(C)nc2c1", "cells": "HepAD38", "result": "100–1000 µM"}
{"smiles": "COc1ccc(CNC(=O)c2c3n(c(=O)n2-c2ccccc2)CCN(C(=O)c2ccc(Br)c(Cl)c2)C3)cc1", "cells": "HepG2.2.15", "result": "0.5–5 µM"}
{"smiles": "Cc1cc(NC(=O)c2c3c(cn2C)S(=O)(=O)N[C@H]2CN(C(=O)C(=O)NCC(F)(F)F)C[C@H]2CO3)ccc1F", "cells": "HepAD38", "result": "<0.5 µM"}
{"smiles": "CNC(=O)c1ccc(-n2c(=O)c3c(n4ncc(NCc5ccc(F)cc5)c24)CN(C(=O)c2ccc(Br)c(C#N)c2)CC3)cc1", "cells": "HepG2.117", "conditions": "3 d", "result": "0.1–0.5 µM"}
{"smiles": "Cc1cc2c(C(=O)Nc3ccc(F)c(Cl)c3)n(C)nc2cc1NS(=O)(=O)c1cnn(C)c1", "cells": "HepAD38", "result": "100–1000 µM"}
{"smiles": "C#C[C@H](CO)NC(=O)C(=O)c1c(C)c(C(=O)Nc2ccc(F)c(C#N)c2)n(C)c1C", "cells": "HepG2.2.15", "result": "0.001–0.0099 µM"}
{"smiles": "C[C@H](NC(=O)c1c2n(c(=O)n1-c1ccc(OC3CC3)cc1)C[C@@H](C)N(C(=O)c1ccc(Br)c(Cl)c1)C2)c1ccccc1F", "cells": "HepG2.117", "result": "0.5–5 µM"}
{"smiles": "C[C@H](c1cnc([C@@]2(F)CN(C(=O)c3ccc(Br)c(C#N)c3)CCS2(=O)=O)s1)c1ccccc1F", "cells": "HepG2.117", "result": "<0.1 µM"}
{"smiles": "Cc1cc(C)n(-c2nc3c(c(=O)n2-c2ncc(N)cn2)C[C@@H](C)N(C(=O)c2ccc(Br)c(C(F)(F)F)c2)C3)n1", "strain": "Genotype D", "cells": "HepG2.117", "result": "≤0.05 µM"}
{"smiles": "COc1ccc(-n2c(=O)c3c(n4ncc(NCc5ccccc5)c24)CN(C(=O)c2ccc(Cl)c(Cl)c2)CC3)cc1", "cells": "HepG2.117", "conditions": "3 d", "result": "<0.1 µM"}
{"smiles": "CCOC(=O)C1=C(CN2CC(F)(F)[C@@H]3[C@H]2CON3C[C@@H](F)CCC(C)(C)C(=O)O)NC(c2nccs2)=N[C@H]1c1cccc(F)c1C", "cells": "HepG2.2.15", "result": "0.008 µM"}
{"smiles": "Cc1cc(C)n(-c2nc3c(c(=O)n2-c2ccc(N4CCNCC4)nc2)C[C@@H](C)N(C(=O)c2ccc(Br)c(C(F)(F)F)c2)C3)n1", "strain": "Genotype D", "cells": "HepG2.117", "result": "≤0.05 µM"}
{"smiles": "Cc1cc(NC(=O)c2c3c(cn2C)S(=O)(=O)NC2CCN(C(=O)C(=O)N4CC(F)(F)C4)CC2CO3)ccc1F", "cells": "HepAD38", "result": "<0.5 µM"}
{"smiles": "CNC(=O)c1ccc(-n2c(=O)c3c(n4ncc(Nc5ccccc5)c24)CN(C(=O)c2ccc(Br)c(Cl)c2)CC3)cc1", "cells": "HepG2.117", "conditions": "3 d", "result": "<0.1 µM"}
{"smiles": "O=C(c1ccc(Cl)c(Cl)c1)N1CCS(=O)(=O)[C@@H](c2cccs2)C1", "cells": "HepG2.2.15", "result": "0.5–5 µM"}
{"smiles": "Cn1cc(S(=O)(=O)NC2CCN(S(=O)(=O)C3(C)CC3)CC2)c(F)c1C(=O)Nc1ccc(F)c(F)c1", "cells": "HepAD38 cells", "result": "<0.1 µM"}
{"smiles": "CCC(NS(=O)(=O)Nc1ccc2c(C(=O)Nc3ccc(F)c(Cl)c3)n(C)nc2c1)c1ccccn1", "cells": "HepAD38", "result": "100–1000 µM"}
{"smiles": "C[C@@H](NC(=O)C(=O)N1C[C@H]2COc3c(c(Cl)n(C)c3C(=O)Nc3ccc(F)c(C(F)F)c3)S(=O)(=O)N[C@H]2C1)C(F)(F)F", "cells": "HepAD38", "result": "<0.5 µM"}
{"smiles": "O=C(Nc1ccc(F)c(Cl)c1)N1CCS(=O)(=O)[C@@H](c2cccs2)C1", "cells": "HepG2.2.15", "result": "0.1–0.5 µM"}
{"smiles": "CCOC(=O)C1=C(CN2CC(F)(F)[C@H]3[C@@H]2CCN3CC[C@@](C)(O)C(=O)O)NC(c2nccs2)=N[C@H]1c1ccc(F)c(F)c1Cl", "cells": "HepG2.2.15", "result": "0.014 µM"}
{"smiles": "Cc1cc(Cl)ccc1C(=O)N1CCS(=O)(=O)[C@H](c2cccs2)C1", "cells": "HepG2.117", "result": ">5 µM"}
{"smiles": "COc1ccc(-n2c(C(=O)NCC3CC3)c3n(c2=O)CCN(C(=O)c2ccc(Cl)c(Cl)c2)C3)cc1", "cells": "HepG2.117", "result": ">5 µM"}
{"smiles": "CNS(=O)(=O)N[C@@H]1CCN(S(=O)(=O)c2cn(C)c(C(=O)Nc3cc(F)c(F)c(F)c3)c2F)C1", "cells": "HepAD38 cells", "result": "0.3–1 µM"}
{"smiles": "COC(=O)C1=C(CN2CC(F)(F)[C@H]3[C@@H]2CCN3CC[C@](C)(O)C(=O)O)NC(c2nccs2)=N[C@H]1c1ccc(F)c(F)c1F", "cells": "HepG2.2.15", "result": "0.085 µM"}
{"smiles": "Cc1cc(C)n(-c2nc3c(c(=O)n2-c2ccc(OCC(N)=O)cc2)C[C@@H](C)N(C(=O)c2ccc(Br)c(C(F)(F)F)c2)C3)n1", "strain": "Genotype D", "cells": "HepG2.117", "result": "≤0.05 µM"}
{"smiles": "Cn1nc2cc(NS(=O)(=O)NC(=O)C3CC3)ccc2c1C(=O)Nc1ccc(F)c(Cl)c1", "cells": "HepAD38", "result": ">1000 µM"}
{"smiles": "Cc1c(C(=O)C(=O)NC2(C#C[C@H](C)O)COC2)c(C)n(C)c1C(=O)Nc1ccc(F)c(C#N)c1", "cells": "HepG2.2.15", "result": "0.001–0.0099 µM"}
{"smiles": "CCOC(=O)C1=C(CN2CC(F)(F)[C@@H]3[C@H]2CON3CC(CC(C)(C)C(=O)O)OC)NC(c2nccs2)=N[C@H]1c1cccc(F)c1C", "cells": "HepG2.2.15", "result": "0.009 µM"}
{"smiles": "Cc1c(C(=O)C(=O)NC2(C#CC3(O)CC3)COC2)c(C)n(C)c1C(=O)Nc1ccc(F)c(C#N)c1", "cells": "HepG2.2.15", "result": "0.001–0.0099 µM"}
{"smiles": "O=C(c1ccc(Br)c(F)c1)N1CCc2c(n3nccc3n(-c3ccccc3)c2=O)C1", "cells": "HepG2.117", "conditions": "3 d", "result": ">5 µM"}
{"smiles": "CN(C)c1ccc(-n2cc(S(=O)(=O)Nc3ccc4c(C(=O)Nc5ccc(F)c(Cl)c5)n(C)nc4c3)cn2)cn1", "cells": "HepAD38", "result": "100–1000 µM"}
{"smiles": "Cn1cnc(-c2ccc([C@H]3CN(C(=O)Nc4ccc(F)c(Cl)c4)CCS3(=O)=O)s2)c1", "cells": "HepG2.117", "result": "0.5–5 µM"}
{"smiles": "Cn1nc2cc(NS(=O)(=O)c3cnn(C4CCCC4)c3)ccc2c1C(=O)Nc1ccc(F)c(Cl)c1", "cells": "HepAD38", "result": "<100 µM"}
{"smiles": "CNC(=O)C(=O)N1CC[C@@H](NS(=O)(=O)c2c(Cl)c(C(=O)Nc3cc(F)c(F)c(F)c3)n(C)c2Cl)C1", "cells": "HepAD38 cells", "result": "<0.1 µM"}
{"smiles": "C[C@H]1CS(=O)(=O)[C@@](F)(c2ncc(Cc3ccccc3)s2)CN1C(=O)c1ccc(Br)c(Cl)c1", "cells": "HepG2.117", "result": ">5 µM"}
{"smiles": "Cc1cc(NC(=O)c2c3c(cn2C)S(=O)(=O)N[C@H]2CN(C(=O)C(=O)N[C@H](C)C(F)(F)F)C[C@H]2CO3)ccc1F", "strain": "Genotype A", "cells": "HepG2", "result": "0.00214 µM"}
{"smiles": "C[C@@H]1CS(=O)(=O)[C@](F)(c2ncc(Cc3ccccc3)s2)CN1C(=O)c1ccc(Br)c(Cl)c1", "cells": "HepG2.117", "result": "0.1–0.5 µM"}
{"smiles": "COc1ccc(-n2c(=O)c3c(n4ncc(Cc5ccccc5)c24)CN(C(=O)c2ccc(Cl)c(Cl)c2)CC3)cc1", "cells": "HepG2.117", "conditions": "3 d", "result": "0.1–0.5 µM"}
{"smiles": "C#C[C@@](CO)(NC(=O)C(=O)c1c(C)c(C(=O)Nc2ccc(F)c(C#N)c2)n(C)c1C)C1CC1", "cells": "HepG2.2.15", "result": "0.001–0.0099 µM"}
{"smiles": "CC(C)Oc1ccc(-n2c(C(=O)NCc3ccc(S(C)(=O)=O)cc3)c3n(c2=O)CCN(C(=O)c2ccc(Br)c(Cl)c2)C3)cc1", "cells": "HepG2.117", "result": "0.5–5 µM"}
{"smiles": "CCOC(=O)C1=C(CN2CC(F)(F)[C@@H]3[C@H]2CON3CC[C@](C)(OC)C(=O)O)NC(c2nccs2)=N[C@H]1c1cccc(F)c1C", "cells": "HepG2.2.15", "result": "0.1 µM"}
{"smiles": "C[C@@H](NC(=O)c1c2n(c(=O)n1-c1ccccc1)CCN(C(=O)c1ccc(Br)c(Cl)c1)C2)c1ccccc1", "cells": "HepG2.117", "result": "0.5–5 µM"}
{"smiles": "Cc1cc(C)n(-c2nc3c(c(=O)n2-c2ccc4c(c2)ncn4CC(F)F)C[C@@H](C)N(C(=O)c2ccc(Br)c(C(F)(F)F)c2)C3)n1", "strain": "Genotype D", "cells": "HepG2.117", "result": "≤0.05 µM"}
{"smiles": "COC(=O)C1=C(CN2CC(F)(F)[C@@H]3[C@H]2CON3C[C@](C)(O)C(C)(C)C(=O)O)NC(c2nccs2)=N[C@H]1c1ccc(F)c(F)c1C", "cells": "HepG2.2.15", "result": "0.044 µM"}
{"smiles": "Cc1cc(NC(=O)c2c3c(cn2C)S(=O)(=O)NC2CN(C(=O)C(=O)NC4CC4)CC2(C)CO3)ccc1F", "cells": "HepAD38", "result": "<0.5 µM"}
{"smiles": "Cn1nc2cc(NS(=O)(=O)NCCc3ccccn3)ccc2c1C(=O)Nc1ccc(F)c(Cl)c1", "cells": "HepAD38", "result": "100–1000 µM"}
{"smiles": "C[C@H]1Cn2c(c(C(=O)NCc3ccccc3-c3ncccn3)n(-c3ccc(-n4cccn4)cc3)c2=O)CN1C(=O)c1ccc(Br)c(Cl)c1", "cells": "HepG2.2.15", "result": "<0.1 µM"}
{"smiles": "Cc1cc(C)n(-c2nc3c(c(=O)n2-c2ccc(NC(C)C)nc2)C[C@@H](C)N(C(=O)c2ccc(Br)c(C(F)(F)F)c2)C3)n1", "strain": "Genotype D", "cells": "HepG2.117", "result": "≤0.05 µM"}
{"smiles": "Cn1nc2ccc(NCc3ccccc3)cc2c1C(=O)Nc1ccc(F)c(Cl)c1", "cells": "HepAD38", "result": ">1000 µM"}
{"smiles": "CCOC(=O)C1=C(CN2CC(F)(F)[C@@H]3[C@H]2CON3[C@@H](C)[C@@H](O)C(C)(C)C(=O)O)NC(c2nccs2)=N[C@H]1c1cccc(F)c1C", "cells": "HepG2.2.15", "result": "0.036 µM"}
{"smiles": "COc1ccc(-n2c(C(=O)N[C@H](C(N)=O)c3ccccc3)c3n(c2=O)CCN(C(=O)c2ccc(Br)c(Cl)c2)C3)cc1", "cells": "HepG2.117", "result": ">5 µM"}
{"smiles": "Cc1c(C(=O)C(=O)NC(C)(C)c2nnco2)c(C)n(C)c1C(=O)Nc1ccc(F)c(C#N)c1", "cells": "HepG2.2.15", "result": "0.001–0.0099 µM"}

The last 8 rows once more:

smiles,strain,cells,conditions,result
Cc1cc(NC(=O)c2c3c(cn2C)S(=O)(=O)NC2CN(C(=O)C(=O)NC4CC4)CC2(C)CO3)ccc1F,,HepAD38,,<0.5 µM
Cn1nc2cc(NS(=O)(=O)NCCc3ccccn3)ccc2c1C(=O)Nc1ccc(F)c(Cl)c1,,HepAD38,,100–1000 µM
C[C@H]1Cn2c(c(C(=O)NCc3ccccc3-c3ncccn3)n(-c3ccc(-n4cccn4)cc3)c2=O)CN1C(=O)c1ccc(Br)c(Cl)c1,,HepG2.2.15,,<0.1 µM
Cc1cc(C)n(-c2nc3c(c(=O)n2-c2ccc(NC(C)C)nc2)C[C@@H](C)N(C(=O)c2ccc(Br)c(C(F)(F)F)c2)C3)n1,Genotype D,HepG2.117,,≤0.05 µM
Cn1nc2ccc(NCc3ccccc3)cc2c1C(=O)Nc1ccc(F)c(Cl)c1,,HepAD38,,>1000 µM
CCOC(=O)C1=C(CN2CC(F)(F)[C@@H]3[C@H]2CON3[C@@H](C)[C@@H](O)C(C)(C)C(=O)O)NC(c2nccs2)=N[C@H]1c1cccc(F)c1C,,HepG2.2.15,,0.036 µM
COc1ccc(-n2c(C(=O)N[C@H](C(N)=O)c3ccccc3)c3n(c2=O)CCN(C(=O)c2ccc(Br)c(Cl)c2)C3)cc1,,HepG2.117,,>5 µM
Cc1c(C(=O)C(=O)NC(C)(C)c2nnco2)c(C)n(C)c1C(=O)Nc1ccc(F)c(C#N)c1,,HepG2.2.15,,0.001–0.0099 µM